Pooled drug test results. Numbers come from NIAID ChemDB, via PubChem.

All rows: tests in culture; agent: HIV-1; cells: MT-2; measure: EC50

An empty or dashed field is not shown.

compound	strain	method	result
COc1ccnc2[nH]cc(C(=O)C(=O)N3CCN(C(=O)c4ccccc4)C[C@H]3C)c12	LAI	RT activity	0.004 µM
Cc1ncc(-c2ccc(OCCOc3ccccc3)nc2)c(N2CCC(C)(C)CC2)c1[C@H](OC(C)(C)C)C(=O)O	NL4-3	luminescence	0.0017 µM
COc1ccc(N(C)C(=O)[C@H](Cc2ccccc2)NC(=O)CC(C)(C)CC(=O)N[C@@H](Cc2ccccc2)C(=O)N(C)c2ccc(OC)cc2)cc1	NL4-3	luciferase	3.98 µM
CC(C)CN(C[C@@H](O)[C@H](Cc1ccccc1)NC(=O)[C@@H](NC(=O)CNC(C)(C)c1cccc(F)c1)C(C)(C)C)S(=O)(=O)c1ccc2cn[nH]c2c1	RF		<1 µM
CCCOc1nc(N)nc2c1ncn2[C@@H]1C=C[C@H](CO)C1	IIIB	cytopathic effect / XTT	2.49 µM
COc1cccc(C(C)(C)NCC(=O)N[C@H](C(=O)N[C@@H](Cc2ccccc2)[C@H](O)CN(CC(C)C)S(=O)(=O)c2ccc(N)cc2)C(C)(C)C)c1	RF		<1 µM
COc1ncc(OC)c2c(C(=O)C(=O)N3CCN(C(=O)c4ccccc4)CC3)c[nH]c12	NL4-3	RT activity	0.0174 µM
CC(C)C1=C2[C@H]3CC[C@@H]4[C@@]5(C)CC[C@H](OC(=O)[C@H]6C[C@@H](C(=O)O)C6(C)C)C(C)(C)[C@@H]5CC[C@@]4(C)[C@]3(C)CC[C@@]2(CCNCC(C)(C)NC(=O)c2cncnc2)CC1=O	92HT599	p24 / ELISA	<1 µM
CN(C(=O)C(Cc1ccccc1)NC(=O)c1cccc(C(=O)N[C@@H](Cc2ccccc2)C(=O)N(C)c2ccc3scnc3c2)c1)c1ccc2scnc2c1	NL4-3	luciferase	0.04 µM
COc1ccc(CNC[C@H](O)[C@@]23CC[C@]4(C)[C@H](CC[C@@H]5[C@@]6(C)CC[C@H](OC(=O)[C@H]7C[C@@H](C(=O)O)C7(C)C)C(C)(C)[C@@H]6CC[C@]54C)C2=C(C(C)C)C(=O)C3)cc1	92HT599	p24 / ELISA	<1 µM
Cc1ncc(-c2ccc(OCC3CCCCC3)nc2)c(N2CCC(C)(C)CC2)c1[C@H](OC(C)(C)C)C(=O)O	NL4-3	luminescence	0.0045 µM
CC(C)C1=C2[C@H]3CC[C@@H]4[C@@]5(C)CC[C@H](OC(=O)[C@H]6C[C@@H](C(=O)O)C6(C)C)C(C)(C)[C@@H]5CC[C@@]4(C)[C@]3(C)CC[C@@]2([C@@H](O)CNCC(C)(C)NC(=O)c2ccc(N3CCC(O)CC3)cc2)CC1=O	92HT599	p24 / ELISA	<1 µM
CC(C)Oc1nc(N)nc2c1ncn2[C@H]1C=C[C@@H](CO)C1	IIIB	cytopathic effect / XTT	9.41 µM
CC(C)C1=C2[C@H]3CC[C@@H]4[C@@]5(C)CC[C@H](OC(=O)[C@H]6C[C@@H](C(=O)O)C6(C)C)C(C)(C)[C@@H]5CC[C@@]4(C)[C@]3(C)CC[C@@]2(CC(=O)NCC(C)(C)N)CC1=O	92HT599	p24 / ELISA	<1 µM
CCC(C)[C@H](NC(=O)CNC(C)(C)c1cccc(F)c1)C(=O)N[C@@H](Cc1ccccc1)[C@H](O)CN(CC(C)C)S(=O)(=O)c1ccc2ncsc2c1	RF		<1 µM
CC(C)C1=C2[C@H]3CC[C@@H]4[C@@]5(C)CC[C@H](OC(=O)[C@H]6C[C@@H](C(=O)O)C6(C)C)C(C)(C)[C@@H]5CC[C@@]4(C)[C@]3(C)CC[C@@]2(CCNCc2ccc(S(C)(=O)=O)cc2)CC1=O	92HT599	p24 / ELISA	<1 µM
CCCCCOc1nc(N)nc2c1ncn2[C@H]1C=C[C@@H](CO)C1	IIIB	cytopathic effect / XTT	7.03 µM
C=C(C)CCOc1ncc(-c2cnc(C)c([C@H](OC(C)(C)C)C(=O)O)c2N2CCC(C)(C)CC2)cc1F	NL4-3	luminescence	0.0025 µM
CN(C(=O)[C@H](Cc1cc(F)cc(F)c1)NC(=O)c1cccc(S(=O)(=O)N[C@@H](Cc2cc(F)cc(F)c2)C(=O)N(C)c2ccc3scnc3c2)c1)c1ccc2scnc2c1	NL4-3	luciferase	0.3 µM
CCC(C)[C@H](NC(=O)CNC(C)(C)c1cccc(F)c1)C(=O)N[C@@H](Cc1ccccc1)[C@H](O)CN(CC(C)C)S(=O)(=O)c1ccc2ncccc2c1	RF		<1 µM
CC(C)C1=C2[C@H]3CC[C@@H]4[C@@]5(C)CC[C@H](OC(=O)[C@H]6C[C@@H](C(=O)O)C6(C)C)C(C)(C)[C@@H]5CC[C@@]4(C)[C@]3(C)CC[C@@]2(CCNC(=O)c2ccc(O[C@@H]3CCOC3)cc2)CC1=O	92HT599	p24 / ELISA	<1 µM
Cc1ncc(-c2ccc(OCc3cccnc3)cn2)c(N2CCC(C)(C)CC2)c1[C@H](OC(C)(C)C)C(=O)O	NL4-3	luminescence	0.0047 µM
Cc1nc(C)c(C(=O)NC[C@H](O)[C@@]23CC[C@]4(C)[C@H](CC[C@@H]5[C@@]6(C)CC[C@H](OC(=O)[C@H]7C[C@@H](C(=O)O)C7(C)C)C(C)(C)[C@@H]6CC[C@]54C)C2=C(C(C)C)C(=O)C3)s1	92HT599	p24 / ELISA	<1 µM
NC(N)=NCCC[C@H](N)C(=O)NC[C@@H]1OC(O[C@H]2[C@@H](O)[C@H](O[C@@H]3[C@@H](O)[C@H](NC(=O)[C@@H](N)CCCN=C(N)N)C[C@H](NC(=O)[C@@H](N)CCCN=C(N)N)[C@H]3O[C@H]3O[C@H](CNC(=O)[C@@H](N)CCCN=C(N)N)[C@@H](O)[C@H](O)[C@H]3NC(=O)[C@@H](N)CCCN=C(N)N)O[C@@H]2CO)[C@H](NC(=O)[C@@H](N)CCCN=C(N)N)[C@@H](O)[C@@H]1O	C (syncytium-inducing)	p24 / RT activity	1.8 µM
CCC1CC(Oc2ccc(-c3cnc(C)c([C@H](OC(C)(C)C)C(=O)O)c3N3CCC(C)(C)CC3)nc2)C1	NL4-3	luminescence	0.01 µM
CCCc1ccc(N(C)C(=O)[C@H](Cc2cc(F)cc(F)c2)NC(=O)NS(=O)(=O)N[C@@H](Cc2cc(F)cc(F)c2)C(=O)N(C)c2ccc(CCC)cc2)cc1	NL4-3	luciferase	0.02 µM
CC(C)CN(C[C@@H](O)[C@H](Cc1ccccc1)NC(=O)[C@@H](NC(=O)[C@@H](C)NC(C)(C)c1ccccc1)C(C)(C)C)S(=O)(=O)c1ccc2nc(N)sc2c1	RF		<1 µM
CNc1nc(N)nc2c1ncn2[C@H]1C=C[C@@H](CO)C1	IIIB	cytopathic effect / XTT	>20 µM
Cc1ccc(N(C)C(=O)[C@H](Cc2ccccc2)NC(=O)NS(=O)(=O)N[C@@H](Cc2ccccc2)C(=O)N(C)c2ccc(C)c(Cl)c2)cc1Cl	NL4-3	luciferase	3.8 µM
COCCOc1nc(N)nc2c1ncn2[C@H]1C=C[C@@H](CO)C1	IIIB	cytopathic effect / XTT	20 µM
Cc1ncc(-c2ccc(N(C)CCOc3ccc(F)cc3Cl)cn2)c(N2CCC(C)(C)CC2)c1[C@H](OC(C)C)C(=O)O	NL4-3	luminescence	0.005 µM
CSC(C)(C)[C@H](NC(=O)CNC(C)(C)c1cccc(F)c1)C(=O)N[C@@H](Cc1ccccc1)[C@H](O)CN(CC(C)C)S(=O)(=O)c1ccc2ncccc2c1	RF		<1 µM
CN(C)c1nc(N)nc2c1ncn2[C@H]1C=C[C@@H](CO)C1	IIIB	cytopathic effect / XTT	10.6 µM

For reference, 4 entries again:

compound | strain | method | result
CN(C(=O)C(Cc1ccccc1)NC(=O)c1cccc(C(=O)N[C@@H](Cc2ccccc2)C(=O)N(C)c2ccc3scnc3c2)c1)c1ccc2scnc2c1 | NL4-3 | luciferase | 0.04 µM
NC(N)=NCCC[C@H](N)C(=O)NC[C@@H]1OC(O[C@H]2[C@@H](O)[C@H](O[C@@H]3[C@@H](O)[C@H](NC(=O)[C@@H](N)CCCN=C(N)N)C[C@H](NC(=O)[C@@H](N)CCCN=C(N)N)[C@H]3O[C@H]3O[C@H](CNC(=O)[C@@H](N)CCCN=C(N)N)[C@@H](O)[C@H](O)[C@H]3NC(=O)[C@@H](N)CCCN=C(N)N)O[C@@H]2CO)[C@H](NC(=O)[C@@H](N)CCCN=C(N)N)[C@@H](O)[C@@H]1O | C (syncytium-inducing) | p24 / RT activity | 1.8 µM
CN(C(=O)[C@H](Cc1cc(F)cc(F)c1)NC(=O)c1cccc(S(=O)(=O)N[C@@H](Cc2cc(F)cc(F)c2)C(=O)N(C)c2ccc3scnc3c2)c1)c1ccc2scnc2c1 | NL4-3 | luciferase | 0.3 µM
COc1ccnc2[nH]cc(C(=O)C(=O)N3CCN(C(=O)c4ccccc4)C[C@H]3C)c12 | LAI | RT activity | 0.004 µM

Conditions beyond the fields shown may differ between rows. ECn is the concentration giving n% inhibition of infection, replication or growth.